This note sets out measurements from patent US20120164142A1.

Experiment [1] concerns the target human natriuretic peptide receptor B (NPR-B) (human) (UniProt P20594). Put plainly: cell-based or functional assay.
In experiment [2] the target is human natriuretic peptide receptor A (NPR-A) (human) (UniProt P16066). Put plainly: cell-based or functional assay.

With CDNP (peptide; modification not given), in experiment [1], the EC50 on NPR-B (nM), whole cell cGMP assay was 25 nM; the efficacy relative to CNP22, NPR-B membrane assay (first set) (% of CNP22 efficacy) is 56; the potency relative to CNP22, NPR-B membrane assay (first set) (fold less potent than CNP22) turned out to be 5.5; the selectivity for NPR-B over NPR-A (EC50 ratio) is 3 fold. The same substance returned an EC50 on NPR-A (nM), whole cell cGMP assay in experiment [2] of 73 nM.
